# Measured values from EP2769723A1, “Compounds for use in inhibiting HIV capsid assembly” (priority 2013, dated 2014).
# Tested on: wild type NL4.3 HIV-1
# Experiment: Tissue culture infectivity test, TZM titration of supernatants from infected TZM cells
# Type: cell-based
# Settings: selectivity index calculated as CC50/IC50
# Experimental: Hits selected in the YFP-screen were further evaluated in the tissue culture experiments with cells infected with the wild type NL4.3 HIV-1. The virus for infection was obtained from co-culture of MT4 cells. The MT4 cells co-culture was synchronized for one week and then used for the infection of fresh MT 4 cells. 48 hrs post-infection was the culture supernatant harvested, cleared by the filtration through […] filter and stored in -80 °C in 1 ml aliquots. Amount of virus was quantified by enzyme-linked immuno sorbent assay (ELISA) with antibodies against HIV-1 CA (3 ng of CA/ml) and blue cell assay (1x10^5 IU/ml), which gives 3 x 10^4 IU/ng of CA.
# For compounds testing the TZM cells were seeded on 96-well plate in the density 5 x 10^3 cells per well. The culture media was aspirated approx. 16 hrs later and cells were infected by the wild type NLA.3 HIV-1 by addition of 50J..il of prepared virus stock diluted with 50 µl of complete DMEM. The compounds were added twice to ensure that there are not any preassembled viruses present at the time of their addition. Compounds were first added 8 hrs post-infection and then 24 hrs later. In both cases the old culture media were replaced by 100 µl of fresh complete DMEM prior to the compounds addition. Different compounds concentrations were tested, but the DMSO concentration never exceeded 1 % DMSO. As controls were used cells treated only with 1 % DMSO and cells treated with 0,1 µM Lopinavir (HIV-1 protease inhibitor). Supernatant was harvested 24 hrs after the second compound addition, i.e. 56 hrs post-infection. Harvested supernatants were immediately titrated on the fresh TZM cells in aim to perform the infectivity assay (TZM titration), or inactivated by addition of Triton X-100 to the final concentration 0.025 % for further ELISA analysis.
# TZM titration was performed on the cells seeded day before on 96-well plate in the density 5 x 10^3 cells per well. The analysis was performed for each compound concentration at three different dilutions and in duplicates. The culture media was aspired and cells were lysed 48 hrs post-infection by addition of 100 µl of SteadyGlo luciferase substrate (Promega) diluted 1 : 1 by complete DMEM. The luminescence signal was measured on Luminoskan Ascent (Thermo Labsystems) after the transfer of 80 µl of lysate to the flat bottom white polystyrene assay plates (Costar).
row,SMILES,SI
1,c1cncc(-c2nc(Nc3ccc4[nH]nnc4c3)c3ccccc3n2)c1 [AMR.325],29
2,CNc1ccc([N+](=O)[O-])cc1Nc1nc(-c2cccnc2)nc2ccccc12 [AMR.494],8.9
3,CNc1ccc([N+](=O)[O-])cc1Nc1nc(-c2ccc(C(=O)c3ccccc3)cc2)nc2ccccc12 [OSR-77],3.5
4,NC(=O)c1c(F)cccc1Nc1nc(-c2ccccn2)nc2ccccc12 [OSR-85],19.2
5,O=[N+]([O-])c1ccc(F)c(Nc2nc(-c3cccnc3)nc3cc(C(F)(F)F)ccc23)c1 [OSR-178],3.3
6,Fc1cc(Nc2nc(-c3cccnc3)nc3ccccc23)cc(F)c1F [OSR-199],19.6
7,FC(F)(F)c1cccc(Nc2nc(-c3cccnc3)nc3cc(C(F)(F)F)ccc23)c1 [OSR-201],2.9
